Compound potency records, mixed from different reports. Data source: NIAID ChemDB in PubChem.

All rows: target-level tests; organism: HIV-1; target: Protease

Rows are shuffled and stem from different studies. a–b is a range or a potency band. Blank or dashed fields: not listed here. ICn is the concentration giving n% inhibition.

SMILES	endpoint	setting	method	strain or isolate	result
CC(C)[C@H](NC(=O)OCc1ccccc1)C(=O)N[C@@H](Cc1ccccc1)[C@H](O)[C@@H](CO)[C@H](Cc1ccccc1)NC(=O)[C@@H](NC(=O)OCc1ccccc1)C(C)C	IC50				0.017 µM
CC(C)(C)NC(=O)[C@@H]1C[C@@H]2CCCC[C@@H]2CN1C[C@@H](O)[C@@H](Cc1ccccc1)C(=O)NC1CCc2ccccc21	IC50				0.055 µM
CC(C)c1ccccc1SC1=C(O)CC(CCC(=O)N2CCSCC2)(c2ccccc2)OC1=O	IC50	pH 4.7	HPLC		1.103 µM
CC(C)(C)CC(=O)N[C@H](Cc1ccccc1)[C@H](O)CN1C[C@H]2CCCC[C@H]2C[C@H]1C(=O)NC(C)(C)C	IC50				0.75 µM
CC(C)[C@H](NC(=O)OCc1ccccc1)C(=O)N[C@@H](Cc1ccccc1)[C@@H](O)[C@H](CO)[C@H](Cc1ccccc1)NC(=O)[C@@H](NC(=O)OCc1ccccc1)C(C)C	IC50				0.037 µM
CC(C)(C)OC(=O)N[C@@H](Cc1ccccc1)[C@@H](O)C[C@@H](Cc1ccccc1)C(=O)N[C@H]1c2ccccc2OC[C@H]1O	IC50		HPLC		0.0001–0.01 µM
O=S1(=O)N(Cc2cccc(-c3cccs3)c2)[C@H](COc2ccccc2)[C@H](O)[C@@H](O)[C@@H](COc2ccccc2)N1Cc1cccc(-c2cccs2)c1	Ki				2.4 µM
CC(C)(C)OC(=O)N1Cc2ccccc2C[C@H]1[C@H](O)CNC[C@H](O)[C@@H]1Cc2ccccc2CN1C(=O)OC(C)(C)C	IC50	pH 5.5	HPLC		>10 µM
CC[C@H](C)[C@H](NC(=O)[C@H](Cc1ccccc1)C[C@H](O)[C@H](Cc1ccccc1)NC(=O)OCc1ccncc1)C(=O)NCc1nc2ccccc2[nH]1	IC50		HPLC		0.0001–0.01 µM
CC(C)c1ccccc1SC1=C(O)CC(CCCC(=O)NCc2ccccc2)(c2ccccc2)OC1=O	IC50	pH 4.7	HPLC		0.081 µM
CC(C)[C@H](NC(=O)CNS(C)(=O)=O)C(=O)N[C@@H](Cc1ccccc1)C(=O)C(F)(F)CCc1ccccc1	IC50				0.0022 µM
CSC[C@H](NC(=O)COc1cccc2ccccc12)C(=O)N[C@@H](Cc1ccccc1)[C@H](O)C(=O)N1CSC(C)(C)[C@H]1C(=O)NC(C)(C)C	IC50		HPLC		0.0036 µM
NC(=O)C[C@H](NC(=O)OCc1ccccc1)C(=O)N[C@@H](Cc1ccccc1)C(=O)C(F)(F)CCc1ccccc1	IC50				0.021 µM
COC(=O)N[C@H](C(=O)N[C@@H](Cc1ccccc1)[C@@H](O)CN(Cc1ccc(-c2ccccn2)cc1)NC(=O)[C@@H](NC(=O)OC)C(C)(C)C)C(C)(C)C	IC50		absorbance		0.004 µM
CCC(C)[C@H](NC(=O)CCCCCCCCCCCCCCC(=O)N[C@@H](CC(N)=O)C(=O)N[C@@H](Cc1ccccc1)C(=O)O)C(=O)N[C@@H](Cc1ccc(-c2ccccc2)cc1)C(N)=O	Ki		HPLC		0.261 µM
CC(C)c1ccccc1SC1=C(O)CC(CCC(=O)N2CCNCC2)(c2ccccc2)OC1=O	IC50	pH 4.7	HPLC		1.106 µM
Cc1ccc(C)c(N2CCN(Cc3cn([C@@H](Cc4ccccc4)[C@H](Cc4ccccc4)NC(=O)OC4CCCC4)nn3)CC2)c1	IC50		fluorescence		<5 µM
CC(C)(C)OC(=O)N[C@@H](Cc1ccccc1)[C@H](O)CNC[C@@H](O)[C@H](Cc1ccccc1)NC(=O)C1[C@H](O)CCC1(C)C	IC50	pH 5.5	HPLC		<10 µM
CCC(C)[C@H](NC(=O)CCCCCCCCCCCCCCC(=O)N[C@@H](CC(N)=O)C(=O)N[C@@H](Cc1ccc(O)cc1)C(=O)O)C(=O)N[C@@H](Cc1ccccc1)C(N)=O	IC50		HPLC		>1 µM
CC(C)N(CC(=O)NC12NC(=O)C3(O)C4C5CC(C6C5C3C61)C42)C(=O)CN(C)C(=O)OCc1ccccc1	IC50		absorbance		10 µM
CC(C)(C)NC(=O)[C@H]1N(C(=O)[C@@H](O)[C@H](Cc2ccccc2)NC(=O)[C@H](CC(N)=O)NC(=O)COc2cccc3ccccc23)CSC1(C)C	Ki				0.0000068 µM
CC(C)CC[C@H](NC(=O)CCCCCCCCCCCCCCC(=O)N[C@@H](CC(N)=O)C(=O)N[C@@H](Cc1ccccc1)C(=O)O)C(=O)N[C@@H](Cc1ccccc1)C(N)=O	IC50		HPLC		0.946 µM
O=C(N[C@@H](Cc1ccccc1)[C@H](Cc1ccccc1)n1cc(CN2CCN(c3ccccc3)CC2)nn1)OC1CCCC1	IC50		fluorescence		<5 µM
COc1cc(O)c2c(c1)O[C@H](c1ccccc1)CC2=O	IC50		HPLC		>100 µg/mL
Cc1ccccc1CNC(=O)[C@H]1N(C(=O)[C@@H](O)[C@H](Cc2ccccc2)NC(=O)c2cccc(O)c2C)CSC1(C)C	Ki				0.000035 µM
CC(C)c1ccccc1SC1=C(O)CC(CCCCC(=O)O)(c2ccccc2)OC1=O	IC50	pH 4.7	HPLC		0.0018 µM
CC(C)[C@H](NC(=O)OCc1ccccc1)C(=O)N[C@@H](Cc1ccccc1)[C@@H](O)[C@H](CO)[C@H](Cc1ccccc1)NC(=O)[C@H](CC(C)(C)C)NC(=O)OCc1ccccc1	IC50				0.035 µM
CC(=O)NCC(=O)N[C@H](C(=O)N[C@@H](Cc1ccccc1)C(=O)C(F)(F)CCc1ccccc1)C(C)C	IC50				0.0032 µM
Cc1ccccc1CNC(=O)[C@@H]1CSCN1C(=O)[C@@H](O)[C@H](Cc1ccccc1)NC(=O)C(C)C(C)C(=O)OC[C@@H]1O[C@H](n2cc(C)c(=O)[nH]c2=O)C[C@H]1N=[N+]=[N-]	IC50			IIIB	<5 µM
CC(C)(C)OC(=O)N[C@@H](Cc1ccccc1)[C@H](O)CNC[C@@H](O)[C@H](Cc1ccccc1)NC(=O)[C@H](O)C(C)(C)C	IC50	pH 5.5	HPLC		<10 µM
NC(=O)C[C@H](NC(=O)CCCCCCCCCCCCCCC(=O)NCc1cccc(C(=O)N[C@@H](Cc2ccccc2)C(N)=O)c1)C(=O)N[C@@H](Cc1ccccc1)C(=O)O	IC50		HPLC		>1 µM
CC(C)(C)NC(=O)[C@H]1N(C(=O)[C@@H](O)[C@H](Cc2ccccc2)NC(=O)[C@H](CC(N)=O)NC(=O)COc2cccc3cnccc23)CSC1(C)C	IC50		HPLC		0.0022 µM
O=C(N[C@@H](Cc1ccccc1)[C@H](Cc1ccccc1)n1cc(CN2CCN(c3cccc(C(F)(F)F)c3)CC2)nn1)OC1CCCC1	IC50		fluorescence		<5 µM
CC(C)(C)OC(=O)N[C@@H](Cc1ccccc1)[C@H](O)CNC[C@@H](O)[C@H](Cc1ccccc1)NC(=O)C1NC(=O)CC1(C)C	IC50	pH 5.5	HPLC		<10 µM
CC(C)(C)NC(=O)[C@@H]1C[C@@H]2CCCC[C@@H]2CN1C[C@@H](O)[C@@H](Cc1ccccc1)C(=O)NC1c2ccccc2C[C@H]1O	IC50				0.12 µM
Cc1cn([C@@H]2C[C@@H](N=[N+]=[N-])[C@H](COC(=O)C(C)(C)CC(=O)N[C@@H](Cc3ccccc3)[C@H](O)C(=O)N3CSC(C)(C)[C@H]3C(=O)NC(C)(C)C)O2)c(=O)[nH]c1=O	IC50			IIIB	>5 µM
CC(C)(C)OC(=O)N[C@@H](Cc1ccccc1)[C@H](O)CNC[C@@H](O)[C@H](Cc1ccccc1)NC(=O)C1(O)CCc2ccccc21	IC50	pH 5.5	HPLC		<10 µM
O=C1C(=O)N(Cc2ccccc2)C(Sc2ccccc2)C(O)C(Sc2ccccc2)N1Cc1ccccc1	Ki				0.5 µM
Cc1cn([C@@H]2C[C@@H](N=[N+]=[N-])[C@H](COC(=O)C(C)(C)CC(=O)N[C@@H](Cc3ccccc3)[C@H](O)C(=O)N3CSC[C@H]3C(=O)NC(C)(C)C)O2)c(=O)[nH]c1=O	IC50			IIIB	>5 µM
CC(NC(=S)c1ncccn1)C(=O)NC(C(=O)NC12NC(=O)C3(O)C4C5CC(C6C5C3C61)C42)C(C)C	IC50		absorbance		0.5 µM
CC(C)=CCc1c(CO)cc2oc3cc(O)c(O)c(CC=C(C)C)c3c(=O)c2c1O	IC50		HPLC		4.81 ± 0.32 µM
C[C@H]1CCCCCCCCCCOC(=O)N(C[C@@H](O)[C@H](Cc2ccccc2)NC(=O)O[C@H]2CO[C@H]3OCC[C@H]32)C1	Ki				0.0089 µM
Cc1ccccc1CNC(=O)[C@H]1N(C(=O)[C@@H](O)[C@H](Cc2ccccc2)NC(=O)C(C)C(C)C(=O)OC[C@@H]2O[C@H](n3cc(C)c(=O)[nH]c3=O)C[C@H]2N=[N+]=[N-])CSC1(C)C	IC50			IIIB	<5 µM
CC(C)C[C@H](NC(=O)[C@H](Cc1ccccc1)C[C@H](O)[C@H](Cc1ccccc1)NC(=O)OC(C)(C)C)C(=O)NCCOP(=O)(O)O	IC50		HPLC		0.0001–0.01 µM
CC(C)c1ccccc1SC1=C(O)CC(CCCCC(N)=O)(c2ccccc2)OC1=O	IC50	pH 4.7	HPLC		0.092 µM
CC(C)(CO)CNC(=O)[C@H](Cc1ccccc1)[C@H](O)CN1C[C@H]2CCCC[C@H]2C[C@H]1C(=O)NC(C)(C)C	IC50				0.49 µM
CC(C)[C@H](NC(=O)COc1cccc2cnccc12)C(=O)N[C@@H](Cc1ccccc1)[C@H](O)C(=O)N1CSC[C@H]1C(=O)NC(C)(C)C	IC50		HPLC		0.0066 µM
CC(C)(C)OC(=O)N[C@@H](Cc1ccccc1)[C@H](O)CNC[C@@H](O)[C@H](Cc1ccccc1)NC(=O)OCc1cccnc1	IC50	pH 5.5	HPLC		<10 µM
CC(C)(C)NC(=O)[C@H]1N(C(=O)[C@@H](O)[C@H](Cc2ccccc2)NC(=O)[C@H](CC(N)=O)NC(=O)COc2cccc3ccccc23)CSC1(C)C	IC50		HPLC		0.019 µM
Cc1ccc(Cl)cc1N1CCN(Cc2cn([C@@H](Cc3ccccc3)[C@H](Cc3ccccc3)NC(=O)c3ccco3)nn2)CC1	IC50		fluorescence		>5 µM
COc1cc(O)cc(O)c1C(=O)/C=C/c1ccccc1	IC50		HPLC		31 µg/mL
Cc1ccc(Cl)cc1N1CCN(Cc2cn([C@@H](Cc3ccccc3)[C@H](Cc3ccccc3)NC(=O)Oc3ccccc3)nn2)CC1	IC50		fluorescence		>5 µM
CC(C)(NC(=O)CCCCCCCCCCCCCCC(=O)N[C@@H](CC(N)=O)C(=O)N[C@@H](Cc1ccccc1)C(=O)O)C(=O)N[C@@H](Cc1ccccc1)C(N)=O	IC50		HPLC		>1 µM
CC(C)(C)OC(=O)N[C@@H](Cc1ccccc1)[C@@H](O)C[C@@H](C/C=C/c1ccccc1)C(=O)N[C@H](C(=O)NCCO)c1ccccc1	IC50		HPLC		0.0001–0.01 µM
O=C(N[C@@H](Cc1ccccc1)[C@H](Cc1ccccc1)n1cc(CN2CCN(c3cc(Cl)cc(Cl)c3)CC2)nn1)OC1CCCC1	IC50		fluorescence		<5 µM

5 of the rows above, restated:

SMILES | endpoint | setting | method | strain or isolate | result
CC(C)[C@H](NC(=O)OCc1ccccc1)C(=O)N[C@@H](Cc1ccccc1)[C@@H](O)[C@H](CO)[C@H](Cc1ccccc1)NC(=O)[C@H](CC(C)(C)C)NC(=O)OCc1ccccc1 | IC50 |  |  |  | 0.035 µM
CC(C)(C)OC(=O)N1Cc2ccccc2C[C@H]1[C@H](O)CNC[C@H](O)[C@@H]1Cc2ccccc2CN1C(=O)OC(C)(C)C | IC50 | pH 5.5 | HPLC |  | >10 µM
Cc1ccccc1CNC(=O)[C@H]1N(C(=O)[C@@H](O)[C@H](Cc2ccccc2)NC(=O)C(C)C(C)C(=O)OC[C@@H]2O[C@H](n3cc(C)c(=O)[nH]c3=O)C[C@H]2N=[N+]=[N-])CSC1(C)C | IC50 |  |  | IIIB | <5 µM
CC(C)c1ccccc1SC1=C(O)CC(CCC(=O)N2CCNCC2)(c2ccccc2)OC1=O | IC50 | pH 4.7 | HPLC |  | 1.106 µM
NC(=O)C[C@H](NC(=O)OCc1ccccc1)C(=O)N[C@@H](Cc1ccccc1)C(=O)C(F)(F)CCc1ccccc1 | IC50 |  |  |  | 0.021 µM